PSTVd loop 15 mutant pool in Nicotiana benthamiana

Values reported by Wu et al. 2024 (doi:10.1371/journal.ppat.1012142).

PSTVd intermediate strain, loop 15: wild type GGAAACCGCUACUAC, pool pattern GGAAACCGNNNNNNC; upper and lower strand joined, each 5' to 3', the first 7 letters being the upper strand, closing pairs included.

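A pool of all variants was put on leaves of three Nicotiana benthamiana plants. Samples came from the inoculated region at 5 days, the leaf margin at 10 and upper systemic leaves at 12.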

Numbers give reads per thousand; 0 = not seen among the reads, higher = more abundant.
Each site shows the three plants.
"Pool" is the share in the plasmid pool used as inoculum, on the same scale.
The inoculated region was read from the minus strand, the other sites from the plus strand.
For reference, wild type rose from 33.9 per thousand in the pool to 202, 200, 159 (inoculated region), 724, 746, 710 (leaf margin) and 856, 883, 880 (systemic leaves).
Samples held 43,870 to 66,106 reads, so the smallest values rest on one or two reads.
The authors trace changes outside the varied positions to PCR and sequencing errors or to mutation in the plant; presence does not show that a variant is infectious alone.

sequence | pool | inoculated region | leaf margin | systemic leaves
GGAAACCGUGAUUUC | 0.240 | 0.360 0.257 0.248 | 0.226 0.111 0.0801 | 0.0483 0.0303 0.114
GGAAACCGUGCAAAC | 0.0960 | 0.0819 0.161 0.114 | 0.0162 0.0445 0.0401 | 0.0322 0 0
GGAAACCGUGCAACC | 0.224 | 0.0655 0.0482 0.0952 | 0.0323 0.0223 0 | 0 0 0
GGAAACCGUGCAAGC | 0.160 | 0.0983 0.0321 0.114 | 0.0162 0 0 | 0 0 0
GGAAACCGUGCAAUC | 0.384 | 0.213 0.161 0.133 | 0 0 0.0200 | 0 0.0303 0
GGAAACCGUGCACAC | 0.368 | 0.115 0.112 0.114 | 0 0 0.0401 | 0 0 0
GGAAACCGUGCACCC | 0.192 | 0.131 0.0964 0.133 | 0.0162 0.0445 0 | 0 0 0
GGAAACCGUGCACGC | 0.272 | 0.164 0.177 0.133 | 0 0.0223 0 | 0.0161 0 0
GGAAACCGUGCACUC | 0.336 | 0.0491 0.0964 0.152 | 0.0323 0.0223 0.0200 | 0 0 0
GGAAACCGUGCAGAC | 0.160 | 0.0491 0.0321 0.0952 | 0.0162 0 0.0200 | 0 0 0
GGAAACCGUGCAGCC | 0.304 | 0.0819 0.0803 0.0952 | 0 0 0.0200 | 0.0161 0 0
GGAAACCGUGCAGGC | 0.304 | 0.131 0.0964 0.0952 | 0.0162 0.0223 0 | 0 0 0
GGAAACCGUGCAGUC | 0.256 | 0.115 0.0643 0.152 | 0.0162 0.0223 0.0601 | 0 0 0
GGAAACCGUGCAUAC | 0.240 | 0.229 0.337 0.419 | 0.113 0.0668 0.160 | 0.0805 0.0605 0.0228
GGAAACCGUGCAUCC | 0.224 | 0.115 0.0964 0.0952 | 0 0 0 | 0.0161 0 0
GGAAACCGUGCAUGC | 0.160 | 0.0655 0.0964 0.0381 | 0 0 0 | 0 0 0
GGAAACCGUGCAUUC | 0.192 | 0.229 0.289 0.324 | 0.129 0.0445 0.160 | 0.0483 0 0
GGAAACCGUGCCAAC | 0.288 | 0.0983 0.112 0.0381 | 0.0162 0 0.0401 | 0.0161 0 0
GGAAACCGUGCCACC | 0.272 | 0.0655 0.0643 0.114 | 0.0162 0 0 | 0 0 0
GGAAACCGUGCCAGC | 0.336 | 0.229 0.161 0.190 | 0 0.0223 0.0401 | 0 0 0
GGAAACCGUGCCAUC | 0.208 | 0.131 0.177 0.228 | 0.0162 0 0 | 0 0 0
GGAAACCGUGCCCAC | 0.128 | 0.0983 0.161 0.114 | 0.0323 0.0223 0.0200 | 0 0 0
GGAAACCGUGCCCCC | 0.320 | 0.0491 0.0964 0.0762 | 0 0 0 | 0 0 0
GGAAACCGUGCCCGC | 0.272 | 0.0655 0.0321 0.0952 | 0.0162 0.0223 0 | 0 0 0
GGAAACCGUGCCCUC | 0.208 | 0.0983 0.0803 0.152 | 0 0 0.0200 | 0.0161 0 0
GGAAACCGUGCCGAC | 0.256 | 0.131 0.145 0.114 | 0.0162 0.0223 0 | 0.0161 0.0303 0
GGAAACCGUGCCGCC | 0.208 | 0.131 0.0803 0.114 | 0.0162 0 0.0200 | 0 0 0
GGAAACCGUGCCGGC | 0.256 | 0.131 0.0643 0.0190 | 0 0.0445 0.0200 | 0 0 0
GGAAACCGUGCCGUC | 0.352 | 0.115 0.129 0.0952 | 0.0808 0.0223 0.0200 | 0 0 0
GGAAACCGUGCCUAC | 0.160 | 0.262 0.369 0.248 | 0.0970 0.0445 0.260 | 0.0161 0.0454 0.114
GGAAACCGUGCCUCC | 0.256 | 0.0819 0.0643 0.0381 | 0 0 0.0200 | 0 0 0
GGAAACCGUGCCUGC | 0.256 | 0.0655 0.0803 0.0952 | 0.0162 0 0.0200 | 0.0161 0 0
GGAAACCGUGCCUUC | 0.240 | 0.180 0.273 0.419 | 0.146 0.0891 0.120 | 0.0322 0 0
GGAAACCGUGCGAAC | 0.224 | 0.229 0.273 0.457 | 0.0808 2.72 0.0801 | 0 0.0756 0.0912
GGAAACCGUGCGACC | 0.144 | 0.0819 0.0643 0.171 | 0 0 0.0401 | 0 0 0
GGAAACCGUGCGAGC | 0.272 | 0.0491 0.0803 0.0762 | 0.0162 0 0.0200 | 0 0 0
GGAAACCGUGCGAUC | 0.224 | 0.164 0.0803 0.114 | 0 0.0223 0.0200 | 0 0 0
GGAAACCGUGCGCAC | 0.176 | 0.0655 0.112 0.114 | 0 0 0 | 0 0 0
GGAAACCGUGCGCCC | 0.224 | 0.131 0.0643 0.152 | 0.0485 0 0 | 0 0 0
GGAAACCGUGCGCGC | 0.192 | 0.0983 0.0964 0.0952 | 0 0 0.0200 | 0 0 0.0228
GGAAACCGUGCGCUC | 0.176 | 0.295 0.161 0.171 | 0.0162 0 0.0200 | 0 0 0
GGAAACCGUGCGGAC | 0.336 | 0.229 0.337 0.476 | 0.0647 0.111 0.100 | 0.0644 0.0454 0
GGAAACCGUGCGGCC | 0.256 | 0.164 0.0964 0.0571 | 0 0 0 | 0 0 0
GGAAACCGUGCGGGC | 0.160 | 0.0983 0.0643 0.0190 | 0 0 0 | 0 0 0
GGAAACCGUGCGGUC | 0.192 | 0.0655 0.112 0.133 | 0 0 0 | 0 0 0
GGAAACCGUGCGUAC | 0.176 | 0.180 0.337 0.286 | 0.113 0.134 0.120 | 0.0161 0.0303 0.0228
GGAAACCGUGCGUCC | 0.240 | 0.377 0.305 0.248 | 0.113 0.0891 0.140 | 0.0161 0 0
GGAAACCGUGCGUGC | 0.176 | 0.541 0.369 0.438 | 0.0808 0.0223 0.180 | 0.0483 0.0303 0.0912
GGAAACCGUGCGUUC | 0.144 | 0.328 0.418 0.305 | 0.0323 0.0668 0.0801 | 0.0161 0.0756 0.0912
GGAAACCGUGCUAAC | 0.128 | 0.0655 0.0964 0.0571 | 0 0.0445 0.0200 | 0 0 0
GGAAACCGUGCUACC | 0.208 | 0.147 0.145 0.0952 | 0 0 0.0401 | 0 0 0
GGAAACCGUGCUAGC | 0.224 | 0.164 0.0643 0.0952 | 0 0 0 | 0.0161 0 0.0228
GGAAACCGUGCUAUC | 0.288 | 0.213 0.161 0.152 | 0.0162 0 0.0200 | 0 0 0
GGAAACCGUGCUCAC | 0.256 | 0.164 0.129 0.114 | 0.0162 0 0.0200 | 0.0483 0 0
GGAAACCGUGCUCCC | 0.256 | 0.0983 0.145 0.0762 | 0.0162 0 0.0200 | 0 0 0
GGAAACCGUGCUCGC | 0.160 | 0.115 0.129 0.133 | 0 0.0223 0 | 0 0 0
GGAAACCGUGCUCUC | 0.176 | 0.147 0.0803 0.152 | 0.0162 0.0223 0 | 0.0161 0 0
GGAAACCGUGCUGAC | 0.304 | 0.0819 0.0803 0.133 | 0.0162 0.0223 0.0200 | 0.0161 0 0
GGAAACCGUGCUGCC | 0.240 | 0.115 0.0643 0.152 | 0 0 0.0200 | 0 0 0
GGAAACCGUGCUGGC | 0.288 | 0.0164 0.0803 0.0952 | 0.0162 0 0.0401 | 0.0322 0 0.0228
GGAAACCGUGCUGUC | 0.272 | 0.0655 0.129 0.0381 | 0.0323 0.0223 0 | 0 0 0
GGAAACCGUGCUUAC | 0.288 | 0.377 0.402 0.381 | 0.129 0.111 0.100 | 0.0322 0.0908 0.0456
GGAAACCGUGCUUCC | 0.240 | 0.0983 0.0482 0.0762 | 0.0323 0 0.0401 | 0 0 0
GGAAACCGUGCUUGC | 0.144 | 0.131 0.0964 0.133 | 0 0 0.0200 | 0 0 0
GGAAACCGUGCUUUC | 0.240 | 0.0819 0.337 0.248 | 0.0647 0.0668 0.200 | 0.0805 0 0
GGAAACCGUGGAAAC | 0.208 | 0.0328 0.0803 0.0762 | 0 0.0223 0 | 0.0161 0 0
GGAAACCGUGGAACC | 0.272 | 0.115 0.0321 0.0952 | 0 0.0891 0.0200 | 0 0 0
GGAAACCGUGGAAGC | 0.192 | 0.0983 0.0964 0.114 | 0 0.0223 0 | 0 0 0
GGAAACCGUGGAAUC | 0.224 | 0.0983 0.0482 0.0381 | 0 0.0445 0 | 0 0 0
GGAAACCGUGGACAC | 0.272 | 0.131 0.0964 0.0762 | 0.0162 0 0.0401 | 0 0 0
GGAAACCGUGGACCC | 0.272 | 0.0819 0.0643 0.0952 | 0 0.0223 0 | 0 0 0
GGAAACCGUGGACGC | 0.256 | 0.0819 0.112 0.133 | 0 0 0.0200 | 0 0 0
GGAAACCGUGGACUC | 0.208 | 0.0491 0.0482 0.152 | 0 0.0223 0.0200 | 0 0 0
GGAAACCGUGGAGAC | 0.240 | 0.0819 0.0803 0.152 | 0.0162 0 0 | 0 0 0

Extract of 10 entries:

- GGAAACCGUGCGAGC (pool 0.272) -> inoculated region 0.0491 0.0803 0.0762; leaf margin 0.0162 0 0.0200; systemic leaves 0 0 0
- GGAAACCGUGCGUCC (pool 0.240) -> inoculated region 0.377 0.305 0.248; leaf margin 0.113 0.0891 0.140; systemic leaves 0.0161 0 0
- GGAAACCGUGCAUUC (pool 0.192) -> inoculated region 0.229 0.289 0.324; leaf margin 0.129 0.0445 0.160; systemic leaves 0.0483 0 0
- GGAAACCGUGCCAGC (pool 0.336) -> inoculated region 0.229 0.161 0.190; leaf margin 0 0.0223 0.0401; systemic leaves 0 0 0
- GGAAACCGUGCUCGC (pool 0.160) -> inoculated region 0.115 0.129 0.133; leaf margin 0 0.0223 0; systemic leaves 0 0 0
- GGAAACCGUGCUUGC (pool 0.144) -> inoculated region 0.131 0.0964 0.133; leaf margin 0 0 0.0200; systemic leaves 0 0 0
- GGAAACCGUGCCUUC (pool 0.240) -> inoculated region 0.180 0.273 0.419; leaf margin 0.146 0.0891 0.120; systemic leaves 0.0322 0 0
- GGAAACCGUGCAACC (pool 0.224) -> inoculated region 0.0655 0.0482 0.0952; leaf margin 0.0323 0.0223 0; systemic leaves 0 0 0
- GGAAACCGUGCUGUC (pool 0.272) -> inoculated region 0.0655 0.129 0.0381; leaf margin 0.0323 0.0223 0; systemic leaves 0 0 0
- GGAAACCGUGCGAUC (pool 0.224) -> inoculated region 0.164 0.0803 0.114; leaf margin 0 0.0223 0.0200; systemic leaves 0 0 0